Pooled drug test results. Numbers come from NIAID ChemDB, via PubChem.

All rows: whole-cell or culture tests; species: Hepatitis C virus

ECn is the concentration giving n% inhibition of infection, replication or growth. Blank or dashed fields: not listed here. Conditions beyond the fields shown may differ between rows. Two numbers with a dash give a range or band.

compound,read-out,strain,cells,read by,setting,result
CCCCOC(=O)C1(c2ccccc2)CCN(c2cccc(NC(N)=S)c2)CC1,EC50,,Huh7,replicon,,<1 µM
COC(=O)N[C@@H](C(=O)N1CCC[C@@H]1c1ncc(-c2ccc(-c3ncc(-c4cnc([C@H]5CCCN5C(=O)[C@@H](c5ccccc5)N5CCCCC5)[nH]4)cn3)cc2)[nH]1)c1ccccc1,EC50,1b,,,,0.00001–0.000999 µM
N#Cc1c(Nc2ccc(Br)c(Cl)c2)s[nH]c1=O,EC50,,Huh7,replicon,,<1 µM
O=C(O)/C=C/c1ccc(NC(=O)C2(NC(=O)c3ccc4c(c3)nc(-c3ccccn3)n4C3C[C@H]4CC[C@@H]3C4)CCCC2)cc1,EC50,,Huh7,,,≤5 µM
N#Cc1c(Nc2cccc(Br)n2)s[nH]c1=O,EC50,,Huh7,replicon,,10–50 µM
CCCCCC(=O)N1CCN(c2nc(N)nc3ncc(-c4ccc(OC)c(OC)c4)nc23)CC1,EC50,HCV replicon,Huh7,replicon,,<0.3 µM
CCC(C)C(NC(=O)N[C@H](C(=O)N1C[C@H]2C([C@H]1C(=O)NC(CC1CC1)C(=O)C(N)=O)C2(C)C)C(C)(C)C)C(=O)O,EC90,,,replicon,,3.2 µM
C=Cc1cn([C@H]2O[C@H](CO)[C@@H](O)[C@@]2(C)F)c2ncnc(N)c12,EC90,,CEM,replicon,,>10 µM
COc1ccc(-c2cnc3nc(N)nc(N4CCN(C(=O)N(C)c5ccccc5)CC4)c3n2)cc1OC,EC50,HCV replicon,Huh7,replicon,,<0.3 µM
CCN(CC)C(=O)c1sc2nc(-c3ccccc3)cc(C(F)(F)F)c2c1N,EC50,,Huh7,luciferase / replicon,,3.5 µM
CCC(C)C(NC(=O)N[C@H](C(=O)N1C[C@H]2C([C@H]1C(=O)NC(CC1CC1)C(=O)C(N)=O)C2(C)C)C(C)(C)C)C(=O)OCc1ccccc1,EC90,,,replicon,,0.4 µM
CCC[C@H](NC(=O)[C@@H]1C[C@@H](Oc2cc(-c3ccccn3)nc3ccsc23)CN1C(=O)[C@@H](NC(=O)NC(C)(C)C)C(C)(C)C)C(=O)C(=O)NC1CC1,EC50,1b,,replicon,,<1 µM
Cc1cnc(C(=O)N2c3cccc(O)c3NC3=C(C(=O)CC(C)(C)C3)[C@@H]2c2ccc(OCc3ccccc3)cc2F)cn1,EC50,1b,,luciferase / reporter gene / replicon,,0.47 µM
Cc1ccc(C(=O)N(c2cc(-c3ccc(-c4cc5ncccn5n4)cc3)sc2C(=O)O)C(C)C)c(C)c1,EC50,1a,,luciferase / replicon,,0.1–0.5 µM
CC(NC(N)=S)c1ccc(Oc2ccccc2)cc1,EC50,,Huh7,replicon,,<1 µM
Fc1cccc(-c2cc3ccn(Cc4cn(-c5ccc(Cl)cc5)nn4)cc-3n2)c1F,EC50,1b,,replicon,,<100 µM
O=C(O)c1sc(-c2ccc(-c3cc4ncccn4n3)cc2)cc1N(C(=O)c1ccc(Cl)cc1Cl)C1CCOC1,EC50,1b,,luciferase / replicon,,0.005–0.01 µM
CCCCCCC1CCC(c2ccc(NC(N)=S)cc2)CC1,EC50,,Huh7,replicon,,<1 µM
COc1ccc(-c2cnc3nc(N)nc(N4CCN(C(=O)Oc5ccc(C)cc5)CC4)c3n2)cc1OC,EC50,HCV replicon,Huh7,replicon,,<0.3 µM
Fc1ccc(-c2cc(Cn3ccc4nc(-c5ccccc5F)cc-4c3)on2)c(C(F)(F)F)c1,EC50,1b,,replicon,,<100 µM
Nc1c(C(=O)N2CCOCC2)sc2nc(-c3ccccc3)cc(C(F)(F)F)c12,EC50,,Huh7,MTT,,3.3 µM
NC(=S)Nc1cccc(Oc2ccccc2)c1,EC50,,Huh7,replicon,,<1 µM
CC(=O)N1c2cccc(O)c2NC2=C(C(=O)CC(C)(C)C2)C1c1c(Cl)cccc1Cl,EC50,1b,,luciferase / reporter gene / replicon,,12.17 µM
Fc1cccc(-c2cc3ccn(Cc4nnc(-c5ccc(Cl)cc5)s4)cc-3n2)c1F,EC50,1b,,replicon,,<100 µM
C[C@@H](Oc1cccc(NC(N)=S)c1)c1ccccc1,EC50,,Huh7,replicon,,<1 µM
CCC[C@H](NC(=O)[C@@H]1C[C@@H](Oc2nc(-c3ccccn3)nc3sccc23)CN1C(=O)[C@@H](NC(=O)NC(C)(C)C)C(C)(C)C)C(=O)C(=O)NC1CC1,EC50,1b,,replicon,,<1 µM
CC(NC(=O)c1ccc2c(c1)nc(-c1ccoc1)n2C1CCCCC1)C(=O)Nc1ccc(/C=C/C(=O)O)cc1,EC50,,Huh7,,,5–50 µM
CCOc1nc(N)nc2c1ncn2[C@@H]1O[C@@H]2COP(=O)(OC(C)C)O[C@H]2[C@@]1(C)F,EC50,2a,,replicon,137 d,3.58 µM
NC(=S)Nc1ccc(OCC2CCCCC2)cc1,EC50,,Huh7,replicon,,<1 µM
O=C(O)/C=C/c1ccc(NC(=O)C2(NC(=O)c3ccc4c(c3)nc(-c3ccccn3)n4C3CCCCC3)CCCC2)cc1,EC50,,Huh7,,,≤5 µM
COC(=O)N[C@@H](C(=O)N1CCC[C@@H]1c1ncc(-c2cnc(-c3cnc(-c4cnc([C@H]5CCCN5C(=O)[C@H](NC(=O)OC)c5ccccc5)[nH]4)cn3)cn2)[nH]1)c1ccccc1,EC50,1b,,,,0.001–0.099 µM
C[C@H](Oc1cccc(NC(N)=S)c1)c1ccccc1,EC50,,Huh7,replicon,,<1 µM
CC(C)[C@@](C)(NC(=O)N[C@H](C(=O)N1C[C@H]2C([C@H]1C(=O)NC(CC1CC1)C(=O)C(N)=O)C2(C)C)C(C)(C)C)C(=O)OCc1ccccc1,EC90,,,replicon,,3.4 µM
CC1(C)CC(=O)C2=C(C1)Nc1c(O)cccc1N(C(=O)CCC(=O)NCc1ccoc1)C2c1ccc(OCc2ccccc2)cc1Cl,EC50,1b,,luciferase / reporter gene / replicon,,22.01 µM
CCN(CC)[C@@H](C(=O)N1CCC[C@@H]1c1ncc(-c2ccc(-c3ncc(-c4cnc([C@H]5CCCN5C(=O)[C@H](C)NC(=O)OC)[nH]4)cn3)cc2)[nH]1)c1ccccc1,EC50,1b,,,,0.00001–0.000999 µM
COCC(C)N(C(=O)c1ccc(Cl)cc1Cl)c1cc(-c2ccccc2)sc1C(=O)O,EC50,1b,,replicon / ELISA,,1–5 µM
COc1ccc(-c2cnc3nc(N)nc(N4CCN(C(=O)Nc5cccc(C(F)(F)F)c5)CC4)c3n2)cc1OC,EC50,HCV replicon,Huh7,replicon,,<0.3 µM
CC(C)(C)OC(=O)[C@@H](NC(=O)N[C@H](C(=O)N1C[C@H]2C([C@H]1C(=O)NC(CC1CC1)C(=O)C(N)=O)C2(C)C)C1Cc2ccccc2C1)C(C)(C)C,EC90,,,replicon,,0.4 µM
O=C(O)/C=C/c1ccc(NC(=O)C2(NC(=O)c3ccc4c(c3)nc(-c3ccccc3)n4C3CCCCC3)CCCC2)cc1,EC50,,Huh7,,,≤5 µM
O=C(N[C@@H](C(=O)N1CCC[C@H]1c1ncc(-c2ccc(-c3ccc(-c4cnc([C@@H]5CCCN5C(=O)[C@H](NC(=O)C5CC5)c5ccccc5)s4)cc3)cc2)s1)c1ccccc1)C1CC1,EC90,genotype 1b,Huh7.5,luciferase / reporter gene,,0.0000074 µM
CC(C)(C)OC(=O)[C@@H](NC(=O)N[C@H](C(=O)N1C[C@H]2C([C@H]1C(=O)NC(CC1CC1)C(=O)C(=O)NCCc1ccccc1)C2(C)C)C(C)(C)C)C(C)(C)C,EC90,,,replicon,,14 µM
NC(=S)NC1(c2ccc(Oc3ccccc3)cc2)CCCCC1,EC50,,Huh7,replicon,,<1 µM
C#Cc1cn([C@@H]2O[C@H](CO)[C@@H](O)[C@@]2(C)F)c2ncnc(N)c12,EC90,,CEM,replicon,,>10 µM
CCC[C@H](NC(=O)[C@@H]1[C@H]2CCC[C@H]2CN1C(=O)[C@@H](NC(=O)[C@@H](NC(=O)c1cnccn1)C1CCCCC1)C(C)(C)C)C(=O)C(=O)NC1CC1,EC50,,Huh7,replicon,10% human serum,0.88 µM
O=C(O)c1sc(-c2ccc(-c3cc4ncccn4n3)cc2)cc1N(C(=O)c1ccc(Cl)cc1Cl)C1CCOCC1,EC50,1b,,luciferase / replicon,,0.01–0.05 µM
COc1ccc(-c2cnc3nc(N)nc(N4CCN(C(=O)Nc5ccccc5)CC4)c3n2)cc1OC,EC50,HCV replicon,Huh7,replicon,,<0.3 µM
NC(=S)Nc1ccc(-c2ccccc2)cc1,EC50,,Huh7,replicon,,<1 µM
O=C1N[C@H]2C(=O)N[C@H]3C(=O)N[C@H](C(=O)N[C@H](C(=O)O)c4cc(O)cc(O)c4-c4cc3ccc4O)[C@H](O)c3ccc(c(Cl)c3)Oc3cc2cc(c3O)Oc2ccc(cc2Cl)C[C@H]2NC(=O)[C@H](Nc3ccc(-c4ccccc4)cc3)c3ccc(O)c(c3)Oc3cc(O)cc(c3)[C@@H]1NC2=O,EC50,Huh Mono,,luciferase,,5.1 µM
Cn1ccc2c(C3CCCCC3)c(-c3ccccc3)nc-2c1,EC50,1b,,replicon,,<100 µM
NS(=O)(=O)c1ccc(CNc2nc(NCC(F)(F)F)c3nc(-c4ccc(F)cc4)cnc3n2)cc1,EC50,HCV replicon,Huh7,replicon,,<0.3 µM
COC(=O)N[C@@H](C(=O)N1CCC[C@@H]1c1ncc(-c2ccc(-c3ccc(-c4cnc([C@H]5CCCN5C(=O)[C@H](NC(=O)OC)c5ccccc5)[nH]4)nn3)cc2)[nH]1)c1ccccc1,EC50,1b,,,,0.001–0.099 µM
CCCCC(NC(=O)[C@@H]1[C@@H]2[C@H](CN1C(=O)[C@@H](NC(=O)OC(C)(C)C)C(C)(C)C)C2(C)C)C(=O)C(=O)NCC(=O)N[C@H](C(=O)N(C)C)c1ccccc1,EC90,,,replicon,,0.4 µM
COc1ccc(-c2cc(C(F)(F)F)c3c(N)c(C(N)=O)sc3n2)cc1,EC50,,Huh7,luciferase / replicon,,4 µM
CCOc1nc(N)nc2ncc(-c3ccc(F)cc3)nc12,EC50,HCV replicon,Huh7,replicon,,<0.3 µM
CC1(C)CC(=O)C2=C(C1)Nc1c(O)cccc1N(C(=O)c1cnccn1)[C@H]2c1ccc(OCc2ccccc2)cc1F,EC50,1b,,luciferase / reporter gene / replicon,,0.31 µM
Cc1cc(Br)ccc1C(=O)N(c1cc(-c2ccc(-c3cn4ccccc4n3)cc2)sc1C(=O)O)C(C)C,EC50,1b,,replicon / ELISA,,0.1–0.5 µM
N#Cc1c(Nc2ccc(Cl)cc2)s[nH]c1=O,EC50,,Huh7,replicon,,1–10 µM
C[C@H](NC(=O)[C@@H](c1ccccc1)N(C)C)c1ncc(-c2cnc(-c3ccc(-c4cnc([C@H]5CCCN5C(=O)[C@@H](c5ccccc5)N(C)C)[nH]4)cc3)cn2)[nH]1,EC50,1b,,,,0.00001–0.000999 µM
COc1cccc(Nc2s[nH]c(=O)c2C#N)c1,EC50,,Huh7,replicon,,>50 µM
COc1ccc(-c2cnc3nc(N)nc(N4CCN(C(=O)NCc5ccc(F)cc5)CC4)c3n2)cc1OC,EC50,HCV replicon,Huh7,replicon,,<0.3 µM
COC(=O)N[C@@H](C(=O)N1CCC[C@H]1c1ncc(-c2ccc(-c3ccc(-c4cnc([C@@H]5CCCN5C(=O)[C@H]5CCCO5)[nH]4)cc3C)cc2)[nH]1)c1ccccc1,EC50,1b,,,,0.00001–0.000999 µM
N#Cc1c(Nc2cc(Cl)c(Cl)c(Cl)c2)s[nH]c1=O,EC50,,Huh7,replicon,,<1 µM
CC(=O)N1c2cccc(O)c2NC2=C(C(=O)CC(C)(C)C2)C1c1ccc(Oc2ccccc2Br)s1,EC50,1b,,luciferase / reporter gene / replicon,,2.86 µM
NC(=O)COc1ccc2c(c1)S(=O)(=O)N=C(c1c(O)c3cc(F)ccc3n(CCC3CC3)c1=O)N2,EC50,1a 45958,,replicon,,0.91 µM
CCOC(=O)[C@H](C)NP(=O)(OC[C@H]1O[C@@H](n2cc(I)c3c(N)nc(N)nc32)[C@](C)(F)[C@@H]1O)Oc1ccccc1,EC90,,CEM,replicon,,>10 µM
CC(C)(C)C(NC(=O)N[C@H](C(=O)N1C[C@H]2C([C@H]1C(=O)NC(CC1CC1)C(=O)C(=O)NCc1ccccc1)C2(C)C)C(C)(C)C)C(=O)O,EC90,,,replicon,,20 µM
COC(=O)N[C@@H](C(=O)N[C@@H](C)c1ncc(-c2cnc(-c3ccc(-c4cnc([C@H]5CCCN5C(=O)[C@H](NC(=O)OC)c5ccccc5)[nH]4)cc3)cn2)[nH]1)c1ccccc1,EC50,1b,,,,0.00001–0.000999 µM
C[C@@]1(F)[C@H](O)[C@@H](CO)O[C@@H]1n1cc(Br)c2c(N)ncnc21,EC90,,CEM,replicon,,>10 µM

For reference, 10 entries again:

compound | read-out | strain | cells | read by | setting | result
C[C@@]1(F)[C@H](O)[C@@H](CO)O[C@@H]1n1cc(Br)c2c(N)ncnc21 | EC90 |  | CEM | replicon |  | >10 µM
COc1ccc(-c2cnc3nc(N)nc(N4CCN(C(=O)Nc5ccccc5)CC4)c3n2)cc1OC | EC50 | HCV replicon | Huh7 | replicon |  | <0.3 µM
COc1ccc(-c2cnc3nc(N)nc(N4CCN(C(=O)Nc5cccc(C(F)(F)F)c5)CC4)c3n2)cc1OC | EC50 | HCV replicon | Huh7 | replicon |  | <0.3 µM
NC(=S)Nc1ccc(-c2ccccc2)cc1 | EC50 |  | Huh7 | replicon |  | <1 µM
CCCCCCC1CCC(c2ccc(NC(N)=S)cc2)CC1 | EC50 |  | Huh7 | replicon |  | <1 µM
CCC[C@H](NC(=O)[C@@H]1C[C@@H](Oc2nc(-c3ccccn3)nc3sccc23)CN1C(=O)[C@@H](NC(=O)NC(C)(C)C)C(C)(C)C)C(=O)C(=O)NC1CC1 | EC50 | 1b |  | replicon |  | <1 µM
NC(=S)Nc1ccc(OCC2CCCCC2)cc1 | EC50 |  | Huh7 | replicon |  | <1 µM
C[C@H](Oc1cccc(NC(N)=S)c1)c1ccccc1 | EC50 |  | Huh7 | replicon |  | <1 µM
CC1(C)CC(=O)C2=C(C1)Nc1c(O)cccc1N(C(=O)CCC(=O)NCc1ccoc1)C2c1ccc(OCc2ccccc2)cc1Cl | EC50 | 1b |  | luciferase / reporter gene / replicon |  | 22.01 µM
Cc1ccc(C(=O)N(c2cc(-c3ccc(-c4cc5ncccn5n4)cc3)sc2C(=O)O)C(C)C)c(C)c1 | EC50 | 1a |  | luciferase / replicon |  | 0.1–0.5 µM